Among the data in patent US20180162862A1 (President and Fellows of Harvard College, priority 2015, published 2018) are IC50 values, retold here.

Amino acid sequences for entries named in this document (tags omitted). Residues count along the entry.
UniProt Q99T05, 68-269 limits assumed: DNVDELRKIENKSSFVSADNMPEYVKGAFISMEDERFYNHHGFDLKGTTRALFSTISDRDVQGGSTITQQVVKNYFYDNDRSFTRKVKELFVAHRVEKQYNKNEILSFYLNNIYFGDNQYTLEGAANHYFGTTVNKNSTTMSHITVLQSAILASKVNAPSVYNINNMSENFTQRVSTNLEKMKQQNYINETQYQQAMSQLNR

In general, IC50 refers to the concentration that gives 50% inhibition.

Each structure is given as a SMILES string. The structures given here were assigned with low confidence; some may be wrong.

This assay concerns the target S. aureus SgtB (Staphylococcus aureus, UniProt Q99T05). Briefly: Dose-dependent displacement of probe CMG121 from S. aureus SgtB by fluorescence polarization. To be noted: read-out: IC50 from FP Assay; displacement of 75 nM CMG121 from S. aureus SgtB, 30 min at 4° C. Type of assay: binding. As to the method:
I. Dose-Dependent Displacement of CMG121 from S. aureus SgtB by Fluorescence Polarization
A black 384 well plate (Corning NBS Low Volume No. 3820) was filled (10 μL per well) with an equilibrated solution containing 10 mM TRIS (pH=8.0), 100 mM NaCl, 75 nM CMG121, and 1.0-1.5 μM S. aureus SgtB (depending on protein batch). Due to presence of 8 mM CHAPS detergent in the buffer of the S. aureus SgtB stock, the final assay solution contains 100-160 μM CHAPS. Using an HP D300 Digital Dispenser, for each compound a 1/1 dilution series (12 wells) of the primary hit compound in DMSO (normalized to 1 μL with DMSO) was prepared and added to the aforementioned assay solution. The plate was incubated at 4° C. for 30 min and read with a Perkin Elmer EnVision microplate reader (FP-read out, excitation: 480 nm; emission: 535 nm). Data was plotted for fluorescence polarization (FP) (y-axis) vs. log(concentration of test compound in μM; x-axis), and IC50 values were determined by non-linear regression analysis using GraphPad Prism 5.0 (GraphPad Software, Inc.; La Jolla, Calif., USA).
FIGS. 10A-E show values of reduction of fluorescence polarization for exemplified compounds. […] In the primary assay, FP was read after 30 min at 4° C., compound concentration was ca. 100 μM, and 90% reduction in FP was threshold for scoring hits (Gampe et al., J. Am. Chem. Soc. 2013, 135 (10), 3776-3779; U.S. Provisional Patent Application, U.S. Ser. No. 61/621,229, filed on Apr. 6, 2012; International Application No. PCT/US2013/030800 filed on Mar. 13, 2013).
The values were determined in two independent experiments. IC50=10 μM; Hill slope: −0.92.
Background: In fluorescence polarisation assays a small probe gives low polarisation when free and higher when bound to something large.
Turning to `CCCCNc1nc(-c2ccc(C(C)(C)C)cc2)nc2cc(=O)[nH]n12` [Example 16, 4-(butylamino)-2-(4-tert-butylphenyl)-6H,7H-pyrazolo[1,5-a][1,3,5]triazin-7-one], the half-inhibitory concentration (IC50) was over 200 µM. The figure for `Cc1cc(OCCCSc2nc(-c3ccc(C(C)(C)C)cc3)nc3cc(=O)[nH]n23)ccc1Cl` [Example 2, 2-(4-tert-butylphenyl)-4-{[3-(4-chloro-3-methylphenoxy)propyl]sulfanyl}-6H,7H-pyrazolo[1,5-a][1,3,5]triazin-7-one] is 14 µM; for `Cc1cc(OCCCNc2nc(-c3ccc(C(C)(C)C)cc3)nc3cc(=O)[nH]n23)ccc1Cl` [Example 14, 2-(4-tert-butylphenyl)-4-{[3-(4-chloro-3-methylphenoxy)propyl]amino}-6H,7H-pyrazolo[1,5-a][1,3,5]triazin-7-one] it is 21 µM.
